Pooled drug test results. Numbers come from NIAID ChemDB, via PubChem.

Shared fields: growth or infection tests; species: HIV-2; cell line: CEM; measure: EC50

ECn: concentration that inhibits the pathogen or its effect by n%.

smiles | strain or isolate | read by | result
CN[C@H](CC(C)C)C(=O)N[C@H]1C(=O)N[C@@H](CC(N)=O)C(=O)N[C@H]2C(=O)N[C@H]3C(=O)N[C@H](C(=O)N[C@H](C(=O)O)c4cc(O)cc(O)c4-c4cc3ccc4O)[C@H](O)c3ccc(c(Cl)c3)Oc3cc2cc(c3O[C@@H]2O[C@H](CO)[C@@H](O)[C@H](O)[C@H]2O[C@H]2C[C@](C)(N)[C@H](O)[C@H](C)O2)Oc2ccc(cc2Cl)[C@H]1O | - | syncytia | 22 µM
Nc1cc(OC[C@H]2CC[C@@H](CO)O2)nc(N)n1 | ROD | syncytia | >250 µM
Cc1cn(C(CF)CCCO)c(=O)[nH]c1=O | ROD | cytopathic effect | >100 µg/mL
CC1(C)[C@@H](CCO)C[C@H]1n1nnc2c(Cl)nc(N)nc21 | - | cytopathic effect | >4 µg/mL
O=C1c2ccccc2C(=O)N1CCCC12CC3CC(CC(C3)C1)C2 | ROD | syncytia | >4 µg/mL
Nc1ccnc(OC[C@H]2CC[C@@H](CO)O2)n1 | ROD | syncytia | >250 µM
CC(=O)Nc1nc2c(ncn2C/C=C\CN2C(=O)c3ccccc3C2=O)c(=O)[nH]1 | - | syncytia | >100 µM
Cc1cn(C2CC(N=[N+]=[N-])C(COC(C(=O)O)P(=O)(O)OP(=O)(O)OP(=O)(O)O)O2)c(=O)[nH]c1=O | ROD | cytopathic effect / syncytia | >100 µg/mL
O=C1c2ccccc2C(=O)N1CC1OC1CCl | - | syncytia | >100 µM
CC(C)CS[C@H]1C[C@@H](n2cnc3c(N)ncnc32)[C@H](O)[C@@H]1O | ROD | cytopathic effect / syncytia / trypan blue | 150 µg/mL
CCCCCCCCCCCCCCCC(=O)Oc1ccc(OP(=O)(OCc2ccc(OC(=O)CCCC)cc2)OP(=O)(O)OP(=O)(O)OC[C@@H]2C=C[C@H](n3cc(C)c(=O)[nH]c3=O)O2)cc1 | ROD | syncytia / visual reading | 0.27 µM
Cc1cn([C@H]2C=C[C@@H](CO)O2)c(=O)[nH]c1=O | - | - | 0.77 µM
O=C(c1cccc(Br)c1)c1ccc2[nH]c(=O)oc2c1 | ROD | syncytia | >8 µg/mL
Nc1ncnc2c1ncn2C(CF)CCCO | ROD | cytopathic effect | >100 µg/mL
Cc1ccc(C)c(C(Cl)S(=O)(=O)c2cc(C)cc[n+]2[O-])c1 | ROD | cytopathic effect | >4 µg/mL
c1ccc(COC[C@@H]2CC[C@H](COc3ncnc4nc[nH]c34)O2)cc1 | ROD | syncytia | >2 µM
O=C(O)C(O[C@@H]1C=C[C@H](n2cc(F)c(=O)[nH]c2=O)C1)P(=O)(O)O | ROD | syncytia | >250 µM
O=C1c2ccccc2C(=O)N1C1C2CC3CC(C2)CC1C3 | ROD | syncytia | >4 µg/mL
COC(=O)C(OCC1OC(n2cc(C)c(=O)[nH]c2=O)CC1N=[N+]=[N-])P(=O)(O)OP(=O)(O)OP(=O)(O)O | ROD | cytopathic effect / syncytia | >100 µg/mL
O=C1c2ccccc2C(=O)N1CCC1C2CC3CC(C2)CC1C3 | ROD | syncytia | >4 µg/mL
Cc1cn(CCCC(O)CF)c(=O)[nH]c1=O | ROD | cytopathic effect | >100 µg/mL
CC(C)C(=O)Oc1ccc(COP(=O)(OCc2ccc(OC(=O)C(C)C)cc2)OP(=O)([O-])OC[C@@H]2CC[C@H](n3ccc(=O)[nH]c3=O)O2)cc1 | ROD | syncytia | >50 µM
O=C1c2ccccc2C(=O)N1[C@H]1CC2CC3CC(C2)C1C3 | ROD | syncytia | >4 µg/mL
Cc1cccc(C(=O)c2ccc3[nH]c(=O)sc3c2)c1 | ROD | syncytia | 3.5 µg/mL
NC/C=C\Cn1cnc2c(N)ncnc21 | - | syncytia | ≥20 µM
Cc1cccc(C)c1NC(=O)c1ccc(N)cc1 | ROD | syncytia | >165 µM
O=c1[nH]c2ccc(Cc3ccccc3F)cc2o1 | ROD | syncytia | >8 µg/mL
Cc1cn([C@H]2C=C[C@@H](CO)O2)c(=O)[nH]c1=O | ROD | syncytia | 0.72 µM
Cc1cccc(C)c1N1C(=O)c2ccc(N)cc2C1=O | ROD | syncytia | >30 µM
Nc1cc(OCC2O[C@H](COCc3ccccc3)[C@@H](OCc3ccccc3)[C@H]2OCc2ccccc2)nc(N)n1 | ROD | syncytia | >10 µM
CC1(C)[C@@H](CCO)C[C@H]1n1cnc2c(=O)[nH]cnc21 | - | cytopathic effect | >100 µg/mL
O=C1c2cccc([N+](=O)[O-])c2C(=O)N1C12CC3CC(CC(C3)C1)C2 | ROD | syncytia | >4 µg/mL
O=C(c1ccccc1)c1ccc2[nH]c(=O)sc2c1 | ROD | syncytia | 4.6 µg/mL
COC(=O)CC[C@@H]1C[C@H]2CCC[C@](NC(=O)c3ccccc3C(=O)N[C@@]34CCC[C@@H](C[C@H](CCC(=O)OC)C3)C4)(C2)C1 | ROD | syncytia | >20 µg/mL
CCCCCCC(=O)Oc1ccc(COP(=O)(OCc2ccc(OC(=O)CCCCCC)cc2)OP(=O)([O-])OC[C@@H]2C=C[C@H](n3ccc(=O)[nH]c3=O)O2)cc1 | ROD | syncytia | 30 µM
Cc1ccc(C)c(C(C)S(=O)(=O)c2c(C)ccc[n+]2[O-])c1 | EHO | cytopathic effect | >20 µg/mL
CCCCCCCCCCCCCCCCCC(=O)Oc1ccc(OP(=O)(OCc2ccc(OC(=O)CCCC)cc2)OP(=O)(O)OP(=O)(O)OC[C@@H]2C=C[C@H](n3cc(C)c(=O)[nH]c3=O)O2)cc1 | ROD | syncytia / visual reading | 0.1 µM
O=c1ccn([C@H]2CC[C@@H](CO)O2)c(=O)[nH]1 | ROD | syncytia | >250 µM
O=c1[nH]c2ccc(Cc3cccc(F)c3)cc2s1 | ROD | syncytia | >1.6 µg/mL
Cc1ccc(C)c(CS(=O)c2ccc(Cl)c[n+]2[O-])c1 | EHO | cytopathic effect | 2.4 µg/mL
O=C1c2ccccc2[C@@]2(O)C3C4C[C@H]5CC(C[C@H]3C5)C4N12 | ROD | syncytia | >20 µg/mL
Cc1cccc(C)c1N1C(=O)c2ccccc2C1=O | ROD | syncytia | >784 µM
Cc1ccc(C(C)S(=O)(=O)c2c(C)ccc[n+]2[O-])c(C)c1 | EHO | cytopathic effect | >100 µg/mL
CCCCCCCCCCCCCCC(=O)Oc1ccc(OP(=O)(OCc2ccc(OC(=O)CCCCCC)cc2)OP(=O)(O)OP(=O)(O)OC[C@@H]2C=C[C@H](n3cc(C)c(=O)[nH]c3=O)O2)cc1 | ROD | syncytia / visual reading | 0.29 µM
CCC[C@H](NP(=O)(OC[C@@H]1C=C[C@H](n2cc(C)c(=O)[nH]c2=O)O1)Oc1ccccc1)C(=O)OC | - | - | 1.1 µM
Cc1cn([C@H]2CC[C@@H](OCC(=O)O)C2)c(=O)[nH]c1=O | ROD | syncytia | >250 µM
CCC(=O)c1ccc2c(c1)sc(=O)n2Cc1ccccc1 | ROD | syncytia | >8 µg/mL
O=C1c2ccccc2C(=O)N1CC1OC1CBr | - | syncytia | >20 µM
CC(C)C(=O)Oc1ccc(COP(=O)(OCc2ccc(OC(=O)C(C)C)cc2)OP(=O)([O-])OC[C@@H]2C=C[C@H](n3ccc(=O)[nH]c3=O)O2)cc1 | ROD | syncytia | 23 µM
Nc1nc(N)c2nn(C[C@@H](CF)OCP(=O)(O)O)nc2n1 | - | syncytia | 55 µg/mL
CN(C)c1cccc(C(=O)c2ccc3[nH]c(=O)oc3c2)c1 | ROD | syncytia | >8 µg/mL
COC(=O)C12CC3CC(C1)CC(N1C(=O)c4ccccc4C1=O)(C3)C2 | ROD | syncytia | >20 µg/mL
CC1(C)[C@@H](CCO)C[C@H]1n1nnc2c(=O)[nH]c(N)nc21 | - | cytopathic effect | >100 µg/mL
Nc1nc(N)nc(OC[C@H]2CC[C@@H](COCc3ccccc3)O2)n1 | ROD | syncytia | >250 µM
O=C(NC12CC3CC(CC(C3)C1)C2)c1ccc([N+](=O)[O-])cc1 | ROD | syncytia | >66.2 µM
COCCOCCOCCOC(=O)C1(C(=O)OCCOCCOCCOC)C2c3cc4c5c6c3-c3c(cc7c8c3C63CN(CCOCCOCCN)CC36c3c-5c(cc5ccc9cc(c-8c6c9c35)C7)C4)C21 | ROD | cytopathic effect | >4 µM
O=C1c2ccccc2C(=O)N1C12CC3CC(CC(C3)C1)C2 | ROD | syncytia | >704 µM
CCCC(CCC)(NP(=O)(OC[C@@H]1C=C[C@H](n2cc(C)c(=O)[nH]c2=O)O1)Oc1ccccc1)C(=O)OC | - | - | 50 µM

Repeating the final 4 entries:

smiles	strain or isolate	read by	result
O=C(NC12CC3CC(CC(C3)C1)C2)c1ccc([N+](=O)[O-])cc1	ROD	syncytia	>66.2 µM
COCCOCCOCCOC(=O)C1(C(=O)OCCOCCOCCOC)C2c3cc4c5c6c3-c3c(cc7c8c3C63CN(CCOCCOCCN)CC36c3c-5c(cc5ccc9cc(c-8c6c9c35)C7)C4)C21	ROD	cytopathic effect	>4 µM
O=C1c2ccccc2C(=O)N1C12CC3CC(CC(C3)C1)C2	ROD	syncytia	>704 µM
CCCC(CCC)(NP(=O)(OC[C@@H]1C=C[C@H](n2cc(C)c(=O)[nH]c2=O)O1)Oc1ccccc1)C(=O)OC	-	-	50 µM

Blank or dashed fields: not listed here. Conditions beyond the fields shown may differ between rows.